{"source": "paper PMC6465249", "about": "(Cell Discovery, 2019)", "key": {"[1]": {"molecular_target": "Hemagglutinin of H3N2 A/Aichi/2/1968 on virus-infected cells (Influenza A virus A/Aichi/2/1968 (H3N2), UniProt P03437, strain)", "assay": "immunostaining of cells or tissue"}, "[2]": {"molecular_target": "Hemagglutinin of H4N6 A/duck/Czech/1956 on virus-infected cells (Influenza A virus A/duck/Czech/1956 …, UniProt P19696, strain)", "assay": "immunostaining of cells or tissue"}}}
{"binder": "AF4H1K1 IgG (antibody, V domains shown, also called huMAb AF4H1K1; copies: 2 + 2) VH: QVQLVESGGGVVQPGTSLRLSCEASGFTSSAYAMHWVRQAPGKGLEWVAVITFDGGYQYYADSVKGRFTISRDISRNTLHLHMNSLRAEDTAVYYCARDPLTKLLPFDWVSGGYFDYWGQGTLVTVSS VL: not shown", "values": [{"measurement": "binding result", "setting": "[1]", "result": "binds"}, {"measurement": "binding result", "setting": "[2]", "result": "binds"}]}
